How the values were obtained:
Mus musculus [1] = assay: Tested for anticancer screening activity against mouse L1210 lymphoid leukemia for number of survivors on day 5 for each group of female mice at 31.30 mg/kg
Mus musculus [2] = assay: Tested for test/Control evaluation incorporating mean survival time over 30 days at dosage of 125 mg/kg
Mus musculus [3] = assay: Tested for anticancer screening activity against mouse L1210 lymphoid leukemia for number of survivors on day 5 for each group of female mice(6) at 15.63 mg/kg
Mus musculus [4] = assay: Tested for anticancer screening activity against mouse L1210 lymphoid leukemia for number of survivors on day 5 for each group of female mice(6) at 500 mg/kg
Mus musculus [5] = assay: Tested for anticancer screening activity against mouse L1210 lymphoid leukemia for number of survivors on day 5 for each group of male mice(6) at 500 mg/kg
Mus musculus [6] = assay: Tested for test/Control evaluation incorporating mean survival time over 30 days at 15.63 mg/kg
Mus musculus [7] = assay: Tested for test/Control evaluation incorporating mean survival time over 30 days at 31.30 mg/kg
Mus musculus [8] = assay: Tested for test/Control evaluation incorporating mean survival time over 30 days at 62.50 mg/kg in male mice
Mus musculus [9] = assay: Tested for anticancer screening activity against mouse L1210 lymphoid leukemia for number of survivors on day 5 for each group of female mice(6) at 250 mg/kg
Mus musculus [10] = assay: Tested for test/Control evaluation incorporating mean survival time over 30 days at dosage of 125 mg/kg in male mice
Mus musculus [11] = assay: Tested for test/Control evaluation incorporating mean survival time over 30 days at 62.50 mg/kg
Mus musculus [12] = assay: Tested for anticancer screening activity against mouse L1210 lymphoid leukemia for number of survivors on day 5 for each group of female mice(6) at 125 mg/kg
Mus musculus [13] = assay: Tested for anticancer screening activity against mouse L1210 lymphoid leukemia for number of survivors on day 5 for each group of female mice(6) at 62.50 mg/kg
Mus musculus [14] = assay: Tested for test/Control evaluation incorporating mean survival time over 30 days at dosage of 250 mg/kg in male mice
Mus musculus [15] = assay: Tested for test/Control evaluation incorporating mean survival time over 30 days at dosage of 250 mg/kg
Mus musculus [16] = assay: Tested for test/Control evaluation incorporating mean survival time over 30 days at dosage of 31.30 mg/kg
Mus musculus [17] = assay: Tested for test/Control evaluation incorporating mean survival time over 30 days at 500 mg/kg
Mus musculus [18] = assay: Anticancer screening activity against mouse L1210 lymphoid leukemia for number of survivors on day 5 for each group of female mice(6) at 31.30 mg/kg
Mus musculus [19] = assay: Tested for test/Control evaluation incorporating mean survival time over 30 days at 25 mg/kg
Mus musculus [20] = assay: Tested for test/Control evaluation incorporating mean survival time over 30 days at 125 mg/kg
Mus musculus [21] = assay: Tested for test/Control evaluation incorporating mean survival time over 30 days at dosage of 500 mg/kg
Mus musculus [22] = assay: Anticancer screening activity against mouse L1210 lymphoid leukemia for number of survivors on day 5 for each group of female mice(6) at 62.50 mg/kg
Mus musculus [23] = assay: Tested for test/Control evaluation incorporating mean survival time over 30 days at dosage of 62.50 mg/kg
Mus musculus [24] = assay: Tested for test/Control evaluation incorporating mean survival time over 30 days at 250 mg/kg
Mus musculus [25] = assay: Anticancer screening activity against mouse L1210 lymphoid leukemia for number of survivors on day 5 for each group of female mice(6) at 15.63 mg/kg
Mus musculus [26] = assay: Anticancer screening activity against mouse L1210 lymphoid leukemia for number of survivors on day 5 for each group of female mice(6) at 250 mg/kg
Mus musculus [27] = assay: Anticancer screening activity against mouse L1210 lymphoid leukemia for number of survivors on day 5 for each group of 6 female mice(6) at 500 mg/kg
Mus musculus [28] = assay: Anticancer screening activity against mouse L1210 lymphoid leukemia for number of survivors on day 5 for each group of female mice(6) at 125 mg/kg

O=[P@]1(N(CCCl)CCCl)N[C@H](c2ccccc2)CCO1
Toxicity day survivors (Mus musculus [1]): 6 | T/C (Mus musculus [2]): 124 | Toxicity day survivors (Mus musculus [3]): 6 | Toxicity day survivors (Mus musculus [4]): 3 | Toxicity day survivors (Mus musculus [5]): 5 | T/C (Mus musculus [6]): 100 | T/C (Mus musculus [7]): 100 | T/C (Mus musculus [8]): 104 | Toxicity day survivors (Mus musculus [9]): 5 | T/C (Mus musculus [10]): 106 | T/C (Mus musculus [11]): 106 | Toxicity day survivors (Mus musculus [12]): 6 | Toxicity day survivors (Mus musculus [13]): 6 | T/C (Mus musculus [14]): 120 | T/C (Mus musculus [15]): 149

O=[P@@]1(N(CCCl)CCCl)N[C@@H](c2ccccc2)CCO1.O=[P@@]1(N(CCCl)CCCl)N[C@H](c2ccccc2)CCO1
T/C (Mus musculus [16]): 106 | T/C (Mus musculus [17]): 108 | Toxicity day survivors (Mus musculus [18]): 6 | T/C (Mus musculus [19]): 94 | T/C (Mus musculus [20]): 120 | T/C (Mus musculus [21]): 204 | Toxicity day survivors (Mus musculus [22]): 6 | T/C (Mus musculus [23]): 109 | T/C (Mus musculus [24]): 122 | Toxicity day survivors (Mus musculus [4]): 4 | Toxicity day survivors (Mus musculus [25]): 6 | T/C (Mus musculus [6]): 103 | Toxicity day survivors (Mus musculus [9]): 6 | T/C (Mus musculus [11]): 105 | Toxicity day survivors (Mus musculus [26]): 6 | Toxicity day survivors (Mus musculus [12]): 6 | Toxicity day survivors (Mus musculus [27]): 5 | Toxicity day survivors (Mus musculus [13]): 6 | Toxicity day survivors (Mus musculus [28]): 6 | T/C (Mus musculus [15]): 105
